Reference: article PMC5415358, “Hybrid Mass Spectrometry Approaches to Determine How L-Histidine Feedback Regulates the Enzyzme MtATP-Phosphoribosyltransferase” (Structure(London, England:1993), 2017)

Target: the molecule itself
Assay: native MS

B1: MtATP-phosphoribosyltransferase (enzyme)
chain: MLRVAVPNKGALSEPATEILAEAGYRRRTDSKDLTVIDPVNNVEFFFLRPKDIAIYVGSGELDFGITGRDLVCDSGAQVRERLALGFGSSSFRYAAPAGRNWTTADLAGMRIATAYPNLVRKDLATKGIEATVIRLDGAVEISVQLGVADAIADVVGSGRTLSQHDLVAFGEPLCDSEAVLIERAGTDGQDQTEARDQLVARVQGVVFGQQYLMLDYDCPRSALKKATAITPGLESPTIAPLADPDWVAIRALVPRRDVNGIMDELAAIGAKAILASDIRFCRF
stoichiometry N: 2
